These are literature values, as cited in article PMC7941644, “Identification and Development of Therapeutics for COVID-19” (ArXiv, 2021).

For data set [1], the system named is SARS-CoV-1.
Data set [2] relates to COVID-19. Conditions: vs control, no placebo.
On the set-up of data set [3]: method as in PMID 32065831. Conditions: subcutaneously administered as printed.

B1: IFN-β: type I interferon, cytokine activating the innate immune response against viral infections (protein, UniProt P01574 22-187, looked up)
Interferon beta: MSYNLLGFLQRSSNFQCQKLLWQLNGRLEYCLKDRMNFDIPEEIKQLQQFQKEDAALTIYEMLQNIFAIFRQDSSSTGWNETIVENLLANVYHQINHLKTVLEEKLEKEDFTRGKLMSSLHLKRYYGRILHYLKAKEYSHCAWTIVRVEILRNFYFINRLTGYLRN
For B1, the “inhibition of coronavirus replication” value in data set [1] is “strongly inhibit the replication”.

B2: IFN-β−1a: interferon beta-1a, administered subcutaneously in the Solidarity trial (protein, UniProt P01574 22-187, looked up)
Interferon beta: B1 Interferon beta
For B2, the “rate ratio of in-hospital death” value in data set [2] is reported as 1.16. Besides, the “effect on 28-day mortality” value in data set [3] is on record as “no effect on 28-day mortality”.
